Measured values from several laboratories, pooled; numbers as filed in NIAID ChemDB.

Shared fields: tests in culture; organism: Human cytomegalovirus; endpoint: EC50

Rows are shuffled and stem from different studies.

Cc1cc(C)cc(Cn2c(=O)cc(N3CCNCC3)n(CC#N)c2=O)c1 ; strain or isolate: AD169 ; value: >570 µM
Cc1nc(N[C@@H]2c3ccccc3C[C@@H]2O)nc(-n2ccnc2C)c1[N+](=O)[O-] ; value: 0.3 µM
Cc1cc(C)cc(Cn2c(=O)ccn(Cc3cccnc3)c2=O)c1 ; strain or isolate: AD169 ; value: 31 µM
Nc1nc2c(ncn2COC(CO)CO)c(=O)[nH]1 ; strain or isolate: VR3480 (ganciclovir-resistant) ; read by: plaque count ; value: 22 µM
COc1cccc(N2CCN(C3=Nc4c(F)cccc4[C@H](CC(=O)O)N3c3cc(C(F)(F)F)ccc3OC)CC2)c1 ; strain or isolate: Clinical isolate 12 ; read by: plaque count ; value: 0.0022 µM
O=C(NCc1ccc(Cl)cc1)c1c[nH]c2ccc(CCCO)cc2c1=O ; strain or isolate: WAT ; read by: plaque count ; value: 2.2 µM
Cc1nc(N2CCC2)nc(-n2ccnc2)c1[N+](=O)[O-] ; value: 0.19 µM
CN(C)c1cccc2c(S(=O)(=O)Nc3ccc(NC(=O)C(C)(C)CO)cc3)cccc12 ; strain or isolate: ULM B (ganciclovir-resistant) ; read by: plaque count ; value: 1.48 µM
CO[C@@H]1CCCC[C@H]1Nc1nc(C)c([N+](=O)[O-])c(-n2ccnc2C)n1 ; value: 0.7 µM
O=C(NCc1ccc(Cl)cc1)c1c[nH]c2ccc(C#CCO)cc2c1=O ; strain or isolate: GDGrP53 ; read by: plaque count ; value: 0.3 µM
Cc1cc(C)cc(Cn2c(=O)ccn(Cc3ccccc3)c2=S)c1 ; strain or isolate: AD169 ; value: 12 µM
Nc1nc2c(ncn2COC(CO)CO)c(=O)[nH]1 ; strain or isolate: P8 (DHPG-S) ; read by: plaque count ; value: 3.2 µM
CN(C)c1cccc2c(S(=O)(=O)Nc3ccc(NC(=O)C(C)(C)CO)cc3)cccc12 ; strain or isolate: isolates B.K.3) ; read by: plaque count ; value: 1.97 µM
O=C(NCc1ccc(Cl)cc1)c1c[nH]c2c(F)cccc2c1=O ; strain or isolate: GDGrP53 ; read by: plaque count ; value: 3.1 µM
Nc1nc2c(ncn2[C@@H]2C=C[C@H](CO)[C@@H](O)C2)c(=O)[nH]1 ; strain or isolate: DAVIS ; value: 0.83 µg/mL
Cc1nc(N2CCC[C@H]2COC(C)C)nc(-n2ccnc2)c1[N+](=O)[O-] ; value: 0.13 µM
Cc1cc(C)cc(Cn2c(=O)ccn(Cc3cccc(Cl)c3)c2=O)c1 ; strain or isolate: AD169 ; value: >140 µM
CNc1cccc2c(S(=O)(=O)Nc3ccc(NC(=O)C(C)(C)CO)cc3)cccc12 ; strain or isolate: Ganciclovir-resistant ; read by: plaque count ; value: 12.5 µM
OC[C@H]1O[C@@H](n2c(Cl)nc3cc(Cl)c(Cl)cc32)[C@H](O)[C@@H]1O ; strain or isolate: R56 ; read by: plaque count ; value: 12 µM

2 of the rows above, restated:

SMILES,strain or isolate,read by,value
Cc1nc(N2CCC2)nc(-n2ccnc2)c1[N+](=O)[O-],-,-,0.19 µM
Nc1nc2c(ncn2COC(CO)CO)c(=O)[nH]1,P8 (DHPG-S),plaque count,3.2 µM

Blank or dashed fields: not listed here. ECn: concentration that inhibits the pathogen or its effect by n%.